A mixed list of measured activities; the numbers were collected in NIAID ChemDB.

All rows: growth or infection tests; species: HIV-1; endpoint: EC50

Neighbouring rows are from separate reports. ECn is the concentration giving n% inhibition of infection, replication or growth. An empty or dashed field is not shown.

| compound | read by | strain | cells | setting | changes | value |
|---|---|---|---|---|---|---|
| CCCc1cc(=O)oc2c3c(c4c(c12)OC(C)(C)C=C4)O[C@H](C)[C@@H](C)[C@@H]3O | XTT | Pyridinone-resistant (RT K103N Y181C) | CEM + CEM-SS |  | RT-K103N Y181C | 0.12 µM |
| CC(C)CN(C[C@@H](O)[C@H](Cc1ccccc1)NC(=O)O[C@H]1CCOC1)S(=O)(=O)c1ccc(N)cc1 | p24 / luminescence | NL4-3 | MT-4 |  |  | 0.023 µM |
| Cc1ccnc2c1NC(=O)c1cccnc1N2C1CC1 | cytopathic effect / XTT | IIIB | U-937 |  |  | 0.3 µM |
| Cc1ccnc2c1NC(=O)c1cccnc1N2C1CC1 | XTT | NL4-3 1 (RT K101E) | CEM + CEM-SS |  | RT-K101E | 0.3 µM |
| Cc1occc1C(=S)Nc1ccc(Cl)c(/C=N/OC(C)(C)C)c1 | cytopathic effect / XTT | 4XAZT+L100I | CEM + CEM-SS |  |  | 1 µM |
| O=c1[nH]cnc2c1ncn2[C@H]1CC[C@@H](CO)O1 | plaque count | RTMC (RT D67N K70R T215F K219Q) | HT4 + HT4 LacZ-1 |  | RT-D67N K70R T215F K219Q | 2.34 µM |
| CC(C)CN(C[C@@H](O)[C@H](Cc1ccccc1)NC(=O)O[C@H]1CCO[C@H]2OCC[C@H]21)S(=O)(=O)c1ccc2nc(NC3CC3)sc2c1 | p24 / luminescence | NL4-3 | MT-4 |  | L10I I15V K20R L24I V32I M36I M46I L63P K70Q V82A I84V L89M | 0.064 µM |
| C/C=C/CSc1cc(NC(=S)c2ccsc2C)ccc1Cl | cytopathic effect / XTT | BaL | MAC |  |  | 0.2 µM |
| CCn1nc(Cc2cccc(C#N)c2)cc1C1CCN(C[C@H]2CN([C@@H](C(=O)O)C(C)C)C[C@@H]2c2cccc(F)c2)CC1 | β-galactosidase | BaL | HeLa |  |  | <0.0037 µM |
| C#C[C@]1(CO)O[C@@H](n2cnc3c(N)nc(F)nc32)C[C@@H]1O | single cycle / fluorescence | Clinical isolate | PBMC |  | A114S/M184V | 0.0057 µM |
| Cc1ccnc2c1NC(=O)c1cccnc1N2C1CC1 | RT activity / fluorescence |  |  |  |  | >67.5 µM |
| Cc1ccnc2c1NC(=O)c1cccnc1N2C1CC1 | plaque count | HIVRTMF (RT L74V) | HT4 + HT4 LacZ-1 |  | RT-L74V T215Y | 0.05 µM |
| COC(=O)N[C@H](C(=O)N[C@@H](Cc1ccccc1)[C@@H](O)CN(Cc1ccc(-c2ccccn2)cc1)NC(=O)[C@@H](NC(=O)OC)C(C)(C)C)C(C)(C)C | virus yield / flow cytometry | IIIB | MT-2 |  | 8374-P47 GS-8374-resistant | 0.0165 µM |
| COc1ccc(S(=O)(=O)N(CC(C)C)C[C@@H](O)[C@H](Cc2ccccc2)NC(=O)O[C@H]2CCO[C@H]3OC[C@H](O)[C@H]32)cc1 | p24 / luminescence | NL4-3 | MT-4 |  | L10I I15V K20R L24I V32I M36I M46I I54V I62V L63P K70Q V82A L88M | 0.014 µM |
| Cc1cn([C@H]2C[C@H](N=[N+]=[N-])[C@@H](CO)O2)c(=O)[nH]c1=O | ATP | IIIB | MT-2 |  | LPV-P31 lopinavir-resistant mutant | 0.513 µM |
| Cc1cn([C@@H]2O[C@H](CO[Si](C)(C)C(C)(C)C)[C@@]3(OS(=O)(=O)C=C3N)[C@H]2O[Si](C)(C)C(C)(C)C)c(=O)[nH]c1=O | cytopathic effect / XTT | UC10-resistant (RT Y181C K101E) | CEM + CEM-SS |  | RT-Y181C K101E | >10 µM |
| CC(=O)N1CCC(C(=O)N(CCCN2CCC(Cc3ccc(C(N)=O)cc3)CC2)c2ccc(C)c(Cl)c2)CC1 | luciferase | R5 subtype B_1 recombinant | U87 (CD4+ CCR5+) + U87 |  |  | 0.01 µM |
| Cc1ccnc2c1NC(=O)c1cccnc1N2C1CC1 | β-galactosidase | NNRTI-resistant (RT V106A Y181C) | MAGI |  | RT-V106A Y181C | >10 µM |
| CC(C)=CCOc1cc(NC(=S)c2ccsc2C)ccc1Cl | XTT | Dihydrocostatolide-resistant (RT-L100I) | CEM + CEM-SS |  | RT-L100I | 0.03 µM |
| COc1ccc(S(=O)(=O)N(CC(C)C)C[C@@H](O)[C@H](Cc2ccccc2)NC(=O)O[C@H]2CCO[C@H]3OCC[C@H]32)cc1 | p24 / luminescence | NL4-3 | MT-4 |  |  | 0.0044 µM |
| CO[P@](=O)(c1cc(C)cc(/C=C/C#N)c1)c1c(C(N)=O)[nH]c2ccc(Cl)c(F)c12 |  | IIIB | MT-4 |  | K103N/Y181C | 0.0047 µM |
| CCc1c(CC2CCCCC2)nc(SCC(=O)c2ccccc2)[nH]c1=O | p24 / ELISA | NL4-3 | C8166 |  | V106M | 0.172 µM |
| Cc1ccc(S(=O)(=O)N(CC(C)C)C[C@@H](O)[C@H](Cc2ccccc2)NC(=O)O[C@H]2CO[C@H]3OCC[C@H]32)cc1 | p24 / ELISA | IIIB | MT-2 |  | L441P | 0.008 µM |
| Nc1nc(=O)n([C@@H]2CS[C@H](CO)O2)cc1F | plaque count | RTMC(181 184) (RT D67N K70R Y181C M184V T215F K219Q) | HT4 + HT4 LacZ-1 |  | RT-D67N K70R Y181C M184V T215F K219Q | >500 µM |
| CCn1nc(Cc2ccc(Cl)cc2)cc1C1CCN(C[C@H]2CN([C@@H](C(=O)O)C(C)C)C[C@@H]2c2cccc(F)c2)CC1 | β-galactosidase | BaL | HeLa | 50% human serum |  | <0.3 µM |
| Cc1cn([C@H]2C[C@H](N=[N+]=[N-])[C@@H](CO)O2)c(=O)[nH]c1=O | XTT | IIIB | AA5 |  |  | 0.1 µM |
| CCn1nc(Cc2ccc(O)cc2)cc1C1CCN(C[C@H]2CN([C@@H](C(=O)O)C3CCCCC3)C[C@@H]2c2cccc(F)c2)CC1 | β-galactosidase | BaL | HeLa |  |  | <0.011 µM |
| Cc1ccnc2c1NC(=O)c1cccnc1N2C1CC1 | cytopathic effect / XTT | Isolate NL4-3 | CEM + CEM-SS |  |  | 0.02 µM |
| CCn1nc(Cc2ccc(S(C)(=O)=O)cc2)cc1C1CCN(C[C@H]2CN([C@@H](C(=O)O)C3CCCCC3)C[C@@H]2c2cccc(F)c2)CC1 | β-galactosidase | BaL | HeLa | 50% human serum |  | <0.011 µM |
| COC(=O)N[C@H](C(=O)N[C@@H](Cc1ccccc1)[C@@H](O)CN(Cc1ccc(-c2ccccn2)cc1)NC(=O)[C@@H](NC(=O)OC)C(C)(C)C)C(C)(C)C | p24 / luminescence | NL4-3 | MT-4 |  | L10I I54V K20R L24I V32I L33F M36I M46I I54M L63P K70Q V82I I84V L89M | >1 µM |
| CCCc1cc(=O)oc2c3c(c4c(c12)OC(C)(C)C=C4)O[C@@H](C)[C@H](C)[C@@H]3O | XTT | Oxathiin carboxanilide-resistant RT L100I | CEM + CEM-SS |  | RT-L100I | >270 µM |
| CCn1nc(Cc2cc(C(F)(F)F)cc(C(F)(F)F)c2)cc1C1CCN(C[C@H]2CN([C@@H](C(=O)O)C(C)(C)C)C[C@@H]2c2cccc(F)c2)CC1 | β-galactosidase | BaL | HeLa |  |  | <0.011 µM |